Several values for one entry are separate records, joined by “and”; a condition that tells them apart may be missing. Equal entries are not always repeated.

Among the data in PMC10668966 are Km values, retold here.

For the series, the system named is CC(=O)N[C@H]1[C@@H](OP(=O)(O)OP(=O)(O)OC[C@H]2O[C@@H](n3ccc(=O)[nH]c3=O)[C@H](O)[C@@H]2O)O[C@H](CO)[C@@H](O)[C@@H]1O. Put plainly: purified protein. The following applies: pH 7.0; 37.0 °C.

Usually Km stands for the substrate concentration at which the rate is half of its maximum. Take (Mycobacterium tuberculosis H37Rv): the Km was 25.4 ± 2.1 µM and 26.3 ± 1.9 µM.
